Laboratory results published in the CheMixHub viscosity set.
Values joined by “and” are separate entries in the source; they are usually repeats but may differ in a detail not shown here. Identical values can stand only once.

Experiments:
[1] = xn = mol fraction of the nth substance listed

CCCCOP(=O)(OCCCC)OCCCC
viscosity
Settings | 298.15 K | 303.15 K | 308.15 K | 313.15 K | 318.15 K | 323.15 K
100 kPa | – | 3.009 mPa·s | 2.674 mPa·s | 2.405 mPa·s | 2.166 mPa·s | 1.921 mPa·s
101 kPa | 3.399 mPa·s | 2.817 mPa·s and 3.012 mPa·s | 2.68 mPa·s and 2.702 mPa·s (2×) | 2.43 mPa·s and 2.441 mPa·s (2×) | 2.21 mPa·s and 2.22 mPa·s (2×) | 2.022 mPa·s
101.33 kPa | – | – | 2.68 mPa·s and 2.68 mPa·s | 2.43 mPa·s and 2.43 mPa·s | 2.21 mPa·s and 2.21 mPa·s | –

CCCCOP(=O)(OCCCC)OCCCC + C1CCCCC1
[1], 303.2 K, 100 kPa
Settings | viscosity [mPa·s]
x1 = 0.073 | 0.9019
x1 = 0.17 | 1.1
x1 = 0.32 | 1.408
x1 = 0.56 | 1.918

CCCCOP(=O)(OCCCC)OCCCC + CCCCCC
viscosity [mPa·s], [1], 101 kPa
Settings | x1 = 0.1 | x1 = 0.2 | x1 = 0.3 | x1 = 0.4003 | x1 = 0.4996 | x1 = 0.6 | x1 = 0.7003 | x1 = 0.7998 | x1 = 0.8988
298.15 K | 0.416 | 0.572 | 0.763 | 1.01 | 1.288 | 1.604 | 1.978 | 2.404 | 2.882
303.15 K | 0.395 | 0.537 | 0.712 | 0.957 | 1.193 | 1.466 | 1.789 | 2.175 | 2.584
308.15 K | 0.374 | 0.506 | 0.666 | 0.895 | 1.106 | 1.349 | 1.631 | 1.972 | 2.33
313.15 K | 0.358 | 0.48 | 0.626 | 0.821 | 1.021 | 1.247 | 1.503 | 1.813 | 2.115
318.15 K | 0.34 | 0.454 | 0.59 | 0.767 | 0.952 | 1.157 | 1.382 | 1.653 | 1.931
323.15 K | 0.323 | 0.43 | 0.557 | 0.722 | 0.892 | 1.075 | 1.279 | 1.525 | 1.773

CCCCOP(=O)(OCCCC)OCCCC + CCCCCCC
[1], 303.2 K, 100 kPa
Settings | viscosity [mPa·s]
x1 = 0.086 | 0.4652
x1 = 0.2 | 0.6206
x1 = 0.36 | 0.9388
x1 = 0.6 | 1.269

CCCCOP(=O)(OCCCC)OCCCC + CCCCCCCCCCCC
viscosity [mPa·s], [1], 101 kPa
Settings | x1 = 0.1 | x1 = 0.2 | x1 = 0.3002 | x1 = 0.4002 | x1 = 0.5001 | x1 = 0.5999 | x1 = 0.7 | x1 = 0.7998 | x1 = 0.9001
298.15 K | 1.413 | 1.519 | 1.645 | 1.824 | 2.014 | 2.229 | 2.48 | 2.745 | 3.054
303.15 K | 1.316 | 1.394 | 1.504 | 1.648 | 1.815 | 2.005 | 2.204 | 2.447 | 2.715
308.15 K | 1.191 | 1.28 | 1.383 | 1.51 | 1.659 | 1.821 | 2.004 | 2.245 | 2.495
313.15 K | 1.105 | 1.179 | 1.272 | 1.385 | 1.529 | 1.666 | 1.842 | 2.033 | 2.235
318.15 K | 1.023 | 1.094 | 1.172 | 1.279 | 1.403 | 1.548 | 1.69 | 1.863 | 2.045
323.15 K | 0.946 | 1.02 | 1.084 | 1.185 | 1.293 | 1.419 | 1.55 | 1.696 | 1.856

CCCCOP(=O)(OCCCC)OCCCC + CS(C)=O
[1], 303.15 K, 101 kPa
Settings | viscosity [mPa·s]
x2 = 0.1114 | 3.148
x2 = 0.2201 | 2.962
x2 = 0.326 | 2.799
x2 = 0.4293 | 2.654
x2 = 0.5302 | 2.582
x2 = 0.6286 | 2.421
x2 = 0.7248 | 2.291

CCCCOP(=O)(OCCCC)OCCCC + Cc1ccccc1C
viscosity [mPa·s], [1], 101.33 kPa
Settings | x1 = 0.103 | x1 = 0.199 | x1 = 0.395 | x1 = 0.602 | x1 = 0.804 | x1 = 0.902
303.15 K | 0.986 | 1.256 | 1.721 | 1.963 | 2.505 | 2.84
308.15 K | 0.937 | 1.213 | 1.618 | 1.812 | 2.263 | 2.561
313.15 K | 0.906 | 1.159 | 1.529 | 1.664 | 2.086 | 2.282
318.15 K | 0.875 | 1.102 | 1.448 | 1.559 | 1.904 | 2.081

CCCCOP(=O)(OCCCC)OCCCC + c1ccccc1
viscosity [mPa·s], [1]
Settings | 303.15 K | 308.15 K | 313.15 K | 318.15 K
101 kPa, x1 = 0.106 | 0.794 | 0.748 | 0.72 | 0.681
101 kPa, x1 = 0.2 | 0.984 | 0.91 | 0.865 | 0.816
101 kPa, x1 = 0.403 | 1.385 | 1.263 | 1.172 | 1.118
101 kPa, x1 = 0.609 | 1.883 | 1.712 | 1.575 | 1.472
101 kPa, x1 = 0.805 | 2.341 | 2.108 | 1.927 | 1.792
101 kPa, x1 = 0.904 | 2.582 | 2.324 | 2.095 | 1.963
101.33 kPa, x1 = 0.106 | 0.794 | 0.748 | 0.72 | 0.681
101.33 kPa, x1 = 0.2 | 0.984 | 0.91 | 0.865 | 0.816
101.33 kPa, x1 = 0.403 | 1.385 | 1.263 | 1.172 | 1.118
101.33 kPa, x1 = 0.609 | 1.883 | 1.712 | 1.575 | 1.472
101.33 kPa, x1 = 0.805 | 2.341 | 2.108 | 1.927 | 1.792
101.33 kPa, x1 = 0.904 | 2.582 | 2.324 | 2.095 | 1.963
101.33 kPa, x2 = 0.096 | 2.582 | 2.324 | 2.095 | 1.963
101.33 kPa, x2 = 0.195 | 2.341 | 2.108 | 1.927 | 1.792
101.33 kPa, x2 = 0.39 | 1.883 | 1.712 | 1.575 | 1.472
101.33 kPa, x2 = 0.596 | 1.385 | 1.263 | 1.172 | 1.118
101.33 kPa, x2 = 0.8 | 0.984 | 0.91 | 0.865 | 0.816
101.33 kPa, x2 = 0.893 | 0.794 | 0.748 | 0.72 | 0.681
